In brackets after ≈: the same amount, converted by molar mass. Non-standard residues stand in square brackets, D forms with d. Residues, ends and D or L forms follow the SMILES beside them.
Tests used:
M. tuberculosis H37Ra [1] = test system: M. tuberculosis H37Ra
MDR M. tuberculosis [2] = test system: MDR M. tuberculosis
M. tuberculosis H37Ra [3] = test system: M. tuberculosis H37Ra; remark: listed apart in the source
M. tuberculosis H37Rv [4] = test system: M. tuberculosis H37Rv
MDR M. tuberculosis [5] = test system: MDR M. tuberculosis; remark: listed apart in the source
M. bovis [6] = test system: M. bovis
M. bovis [7] = test system: M. bovis; remark: listed apart in the source
M. tuberculosis H37Rv [8] = test system: M. tuberculosis H37Rv; remark: listed apart in the source

`CC(C)[C@@H](NC(=O)[C@@H](CO)NC(=O)[C@@H](CCCNC(=N)N)NC(=O)[C@@H](CCCNC(=N)N)NC(=O)[C@@H](CCCNC(=N)N)NC(=O)[C@@H](CCCNC(=N)N)NC(=O)CN)C(=O)N[C@H](CCC(N)=O)C(=O)N[C@H](Cc1c[nH]c2ccccc12)C(=O)N[C@H](CS)C(=O)N[C@H](C)C(=O)O` [D-hLF 1-11] (H-G[dR][dR][dR][dR][dS][dV][dQ][dW][dC][dA]-OH; N-terminus and C-terminus assumed) was tested. Which “MIC, REMA” value (M. tuberculosis H37Ra [1]) did it give?
The value was 100 µg/mL (≈ 72.7 µM).

What about the “MIC, MODS Assay” value (MDR M. tuberculosis [2]) of the same compound?
The value was 200 µg/mL (≈ 145 µM).

And the “MIC, MODS Assay” value (M. tuberculosis H37Ra [3])?
The value was 100 µg/mL (≈ 72.7 µM).

What about the “MIC, REMA” value (M. tuberculosis H37Rv [4]) of the same compound?
The value was 100 µg/mL (≈ 72.7 µM).

What about the “MIC, REMA” value (MDR M. tuberculosis [5]) of the same compound?
The value was 100 µg/mL (≈ 72.7 µM).

And the “MIC, MODS Assay” value (M. bovis [6])?
The value was >200 µg/mL.

What about the “MIC, REMA” value (M. bovis [7]) of the same compound?
The value was 100 µg/mL (≈ 72.7 µM).

And the “MIC, MODS Assay” value (M. tuberculosis H37Rv [8])?
Its value is 100 µg/mL (≈ 72.7 µM).
